From US5023359A, “Use of organic salts of copper for the treatment of honeybee's parasitic diseases” (priority 1990, dated 1991)

Tests used:
[1] = Comparative content of copper in the honey in the bodies of the hives, copper gluconate vs copper sulphate; assay type: in vivo; conditions: N = 4
[2] = Residual amounts of copper in honey after administration (atomic absorption), 64 hives; assay type: in vivo; conditions: after 7 ± 1 months
[3] = 2,50 g total amount per hive, N = 21
[4] = 3,00 g total amount per hive, N = 6

Compound: Copper gluconate
- Content in copper in the honey in the bodies of the hives ([1]; Table A, 1,35 g total per hive (0,189 g mineral copper)): 0,686 ± 0,084 mg/kg
- Content in copper in the honey in the bodies of the hives ([1]; Table A, 3,38 g total per hive (0,473 g mineral copper)): 0,836 ± 0,296 mg/kg
- Content in copper in the honey in the bodies of the hives ([1]; Table A, 6,75 g total per hive (0,945 g mineral copper)): 0,656 ± 0,014 mg/kg
- Residual copper in honey, super ([2]; 1,25 g total amount per hive, N = 19): 2,7 ± 1,7 mg/kg
- Residual copper in honey, body of the hive ([2]; 1,25 g total amount per hive, N = 28): 5,3 ± 2,5 mg/kg
- Residual copper in honey, body of the hive [2, 3]: 1,0 ± 0,25 mg/kg
- Residual copper in honey, super [2, 3]: 0,8 ± 1,0 mg/kg
- Residual copper in honey, body of the hive [2, 4]: 1,6 ± 1,0 mg/kg
- Residual copper in honey, super [2, 4]: 0,6 ± 0,1 mg/kg

Compound: O=S(=O)([O-])[O-].[Cu+2] [copper sulphate, reference compound]
- Content in copper in the honey in the bodies of the hives ([1]; Table B, 1,25 g total per hive (0,319 g mineral copper)): 4,37 ± 2,89 mg/kg
- Content in copper in the honey in the bodies of the hives ([1]; Table B, 2,00 g total per hive (0,510 g mineral copper)): 8,03 ± 10,46 mg/kg
